According to US20240115717A1:
Like-named read-outs stand apart in the source and are kept apart here.

Columns and labels:
[1] = biological target: his-tagged MMP-2 (Co-bead test; ProSpec #ENZ-769) (human) (UniProt P08253)
[2] = biological target: MMP-2 (Magnabead test, anchored by rabbit anti-MMP-2 antibody) (human) (UniProt P08253); test: Magnabead test, displacement of 1 µM CTX-A488 from MMP-2, flow cytometry
[3] = biological target: his-tagged MMP-2 (Co-bead test; ProSpec #ENZ-769) (human) (UniProt P08253); remark: listed apart in the source

| Substance | Relative MMP-2 binding (fold of CTX phage) [1] | other results |
| --- | --- | --- |
| phage-displayed CTXD of SEQ ID NO: 11 (peptide; modification not given) | 2.73 | – |
| phage-displayed CTXD of SEQ ID NO: 6 (peptide; modification not given) | 3.08 | – |
| CTXD5 (purified, recombinant) (peptide; modification not given) | – | IC50 [2]: 0.22 µM |
| phage-displayed CTXD of SEQ ID NO: 10 (peptide; modification not given) | 2.95 | – |
| phage-displayed CTXD of SEQ ID NO: 13 (peptide; modification not given) | 2.35 | – |
| phage-displayed CTXD5 (SEQ ID NO: 4) (peptide; modification not given) | – | Relative MMP-2 binding (fold of CTX phage) [3]: 3.12 |
| phage-displayed CTXD of SEQ ID NO: 16 (peptide; modification not given) | 1.78 | – |
| phage-displayed CTXD of SEQ ID NO: 12 (peptide; modification not given) | 2.63 | – |
| phage-displayed CTXD of SEQ ID NO: 8 (peptide; modification not given) | 2.98 | – |
| phage-displayed CTXD of SEQ ID NO: 14 (peptide; modification not given) | 1.99 | – |
